Compound potency records, mixed from different reports. Data source: NIAID ChemDB in PubChem.

Common to all: growth or infection tests; agent: Rhinovirus; measure: EC50

ECn: concentration that inhibits the pathogen or its effect by n%.

structure	strain	cells	read by	value
Cc1ccccc1Cn1cnc2c(N(C)C)nc(C(F)(F)F)nc21	TYPE 1B	M-HELA	plaque count	0.29 µM
COc1ccc(-c2snc(SC)c2C#N)cc1	Serotype 45 (group A)	HELA-OHIO	cytopathic effect	>12 µM
CN(C)c1nc(C(F)(F)F)nc2c1ncn2Cc1ccc(Cl)cc1Cl	Serotype 29	M-HELA	plaque count	>8 µM
CCOC(=O)c1ccc(OCCOc2ccc(-c3snc(SC)c3C#N)cc2)cc1	Serotype 85 (group B)	HELA-OHIO	cytopathic effect	>2 µM
CSc1nsc(-c2ccc(O)cc2)c1C#N	Serotype 45 (group A)	HELA-OHIO	cytopathic effect	>10 µM
CSc1nsc(-c2ccc(OCc3ccccc3)cc2)c1C#N	Serotype 59 (group B)	HELA-OHIO	cytopathic effect	12 µM
CN(C)c1nc(C(F)(F)F)nc2c1ncn2Cc1ccc(F)cc1	TYPE 1B	M-HELA	plaque count	0.05 µM
Cc1c(-c2ccccc2)n(-c2ccc(F)cc2)c2ccc(C(C)C)cc2c1=O	36/342H	HELA-OHIO	cytopathic effect	0.13 µg/mL
CC(=O)Nc1ccc(Cn2cnc3c(Nc4cccc(F)c4)nc(C(F)(F)F)nc32)cc1	Serotype 2	M-HELA	plaque count	300 µM
Cc1cc(CCCCCOc2c(Cl)cc(C3=NCCO3)cc2Cl)on1	TYPE 87	HeLa	plaque count	2.2 µg/mL
CSc1nsc(-c2ccccc2)c1C#N	Serotype 85 (group B)	HELA-OHIO	cytopathic effect	>80 µM
CSc1nsc(-c2ccc(OCCCCOc3ccc(C#N)cc3)cc2)c1C#N	Serotype 45 (group A)	HELA-OHIO	cytopathic effect	>2 µM
CCOC(=O)/C=C/[C@H](C[C@@H]1CCNC1=O)NC(=O)[C@@H](CC(=O)[C@@H](NC(=O)c1cc(C)on1)C(C)C)Cc1ccc(F)cc1	Isolate 37	OHIO HELA-I	cytopathic effect / visual reading	0.02 µg/mL
CCO/N=C/c1ccc(OCCC2CCN(c3ccc(Cl)nn3)CC2)cc1	1-CV15 (ICAM-1 receptor group 11)	KB	neutral red	0.002 µM
CN(C)c1nc(C(F)(F)F)nc2c1ncn2Cc1ccccc1Cl	Serotype 1B	M-HELA	plaque count	0.2 µM
CCOC(=O)c1ccc(OCCCOc2ccc(-c3snc(SC)c3C#N)cc2)cc1	Serotype 86 (group A)	HELA-OHIO	cytopathic effect	0.4 µM
Cc1cc(Cn2cnc3c(N(C)C)nc(C(F)(F)F)nc32)ccc1Cl	Serotype 13	M-HELA	plaque count	>8 µM
CSc1nsc(-c2ccc(OCCCCOc3ccc([N+](=O)[O-])cc3)cc2)c1C#N	Serotype 70 (group A)	HELA-OHIO	cytopathic effect	>0.5 µM
CCn1c2c(c(=O)c3cc(C(C)C)ccc31)Cc1ccccc1-2	16/11757	HELA-OHIO	cytopathic effect	2.3 µg/mL
CN(C)c1nc(C(F)(F)F)nc2c1ncn2Cc1ccccc1	Serotype 1B	M-HELA	plaque count	0.04 µM
Fc1cccc(Cn2cnc3c(Nc4cccc(F)c4)nc(C(F)(F)F)nc32)c1	Serotype 2	M-HELA	plaque count	2.2 µM
CSc1nsc(-c2ccc(OCCOc3ccc([N+](=O)[O-])cc3)cc2)c1C#N	Serotype 86 (group A)	HELA-OHIO	cytopathic effect	0.4 µM
Cc1c(-c2ccccc2)n(-c2cccc(F)c2)c2ccc(C(C)C)cc2c1=O	1B/B632	HELA-OHIO	cytopathic effect	0.18 µg/mL
CSc1nsc(-c2ccc(OCCCOc3ccc([N+](=O)[O-])cc3)cc2)c1C#N	Serotype 15 (group B)	HELA-OHIO	cytopathic effect	>1 µM
CN(C)c1nc(C(F)(F)F)nc2c1ncn2Cc1cccc(F)c1	Serotype 13	M-HELA	plaque count	>8 µM

Conditions beyond the fields shown may differ between rows.